Measurements reported in patent publication US9975885B2, “Broad-spectrum non-covalent coronavirus protease inhibitors” (priority 2016, dated 2018).

Target: SARS-3CL^pro (Severe acute respiratory syndrome coronavirus (SARS-CoV), UniProt P0C6X7)
Assay type: biochemical

With CC(C)(C)NC(=O)C(c1ccsc1)N(C(=O)Cn1nnc2ccccc21)c1ccc(NC(=O)C2CC2)cc1 (stereo not shown) [Compound 2P, reference compound] the IC50 was 8.9 ± 1.4 µM.
